Taken from: PubChem BioAssay AID624099 (ICCB-Longwood, 2012)

Assay: 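Knock-downs relieving repression by E2 of an HPV18 LCR luciferase reporter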 (primary screen)
Cells: human C33A cervical carcinoma cells (HPV-negative) stably expressing BPV1 E2 and an HPV18 LCR luciferase reporter
Knock-down reagent: siRNA pool against human genes, 40 nM
Timing: 72 h
Read-out: 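Per-well luciferase luminescence, z-scored on each plate against the plate mean and SD with control wells left out, then averaged across three replicate plates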
Reading the numbers: mean z-score and z-score: higher = stronger reporter signal, weaker E2 silencing
Active means: 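Hit if mean z-score reaches 2 and two or more of three replicate z-scores also reach 2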
Here is one part, drawn at random, of about 21,000 deposited reagents. 497 of them (2.4%) were called active. 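Higher z means weaker E2 silencing; only reporter increases were scored, and knock-downs that hurt cell survival may mask genuine repressor factors.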 A number with no mark means an inactive call.

Knock-down of ATF3 (activating transcription factor 3) resulted in: mean z-score -0.04; z-score, replicate A = -0.18; z-score, replicate B = -0.11; z-score, replicate C = 0.18.
Depletion of PRDM1 (PR/SET domain 1) gave: mean z-score 0.62; z-score, replicate A = 0.76; z-score, replicate B = 0.5; z-score, replicate C = 0.6.
For REG1A (regenerating family member 1 alpha) the deposit lists mean z-score 0.38; z-score, replicate A = 0.27; z-score, replicate B = 0.54; z-score, replicate C = 0.32.
With knock-down of KDR (kinase insert domain receptor), the screen gave mean z-score -0.01; z-score, replicate A = 0.19; z-score, replicate B = -0.04; z-score, replicate C = -0.18.
Depletion of ABHD17AP1 (ABHD17A pseudogene 1) came out at: mean z-score 0.58; z-score, replicate A = 0.84; z-score, replicate B = 0.62; z-score, replicate C = 0.28.
CD79A (CD79a molecule) scored mean z-score 0.11; z-score, replicate A = 0.27; z-score, replicate B = -0.08; z-score, replicate C = 0.15.
For ARMC6 (armadillo repeat containing 6), the values are mean z-score -0.13; z-score, replicate A = 0.11; z-score, replicate B = -0.19; z-score, replicate C = -0.32.
Silencing of DPF1 (double PHD fingers 1) came out at: mean z-score -0.57; z-score, replicate A = -0.92; z-score, replicate B = -0.55; z-score, replicate C = -0.23.
BBX (BBX high mobility group box domain containing) gave mean z-score -0.12; z-score, replicate A = -0.05; z-score, replicate B = -0.08; z-score, replicate C = -0.24.
HELB (DNA helicase B) gave mean z-score 1.07; z-score, replicate A = 0.49; z-score, replicate B = 1.37; z-score, replicate C = 1.34.
With knock-down of MMP11 (matrix metallopeptidase 11), the record shows mean z-score -1.52; z-score, replicate A = -1.29; z-score, replicate B = -1.56; z-score, replicate C = -1.69.

Reformatted: 3 of the entries above
gene knocked down,mean z-score,"z-score, replicate A","z-score, replicate B","z-score, replicate C"
ABHD17AP1 (ABHD17A pseudogene 1),0.58,0.84,0.62,0.28
CD79A (CD79a molecule),0.11,0.27,-0.08,0.15
ARMC6 (armadillo repeat containing 6),-0.13,0.11,-0.19,-0.32

The results go on.
For OR10C1 (olfactory receptor family 10 subfamily C member 1), the values are mean z-score 1.84; z-score, replicate A = 1.22; z-score, replicate B = 2.38; z-score, replicate C = 1.91.
After knock-down of GNRH2 (gonadotropin releasing hormone 2), the screen gave mean z-score -0.91; z-score, replicate A = -0.92; z-score, replicate B = -0.95; z-score, replicate C = -0.87.
Against ZNF671 (zinc finger protein 671) the deposit lists mean z-score 1.64; z-score, replicate A = 2.35; z-score, replicate B = 1.84; z-score, replicate C = 0.73.
FASTK (Fas activated serine/threonine kinase) scored mean z-score -0.55; z-score, replicate A = 0.1; z-score, replicate B = -1.05; z-score, replicate C = -0.69.
After knock-down of KIF3A (kinesin family member 3A) the results were mean z-score 0; z-score, replicate A = -0.27; z-score, replicate B = 0.18; z-score, replicate C = 0.08.
SWT1 (SWT1 RNA endoribonuclease homolog) gave mean z-score -1.63; z-score, replicate A = -1.65; z-score, replicate B = -1.62; z-score, replicate C = -1.62.
FCSK (fucose kinase) gave mean z-score -0.6; z-score, replicate A = -0.15; z-score, replicate B = -0.87; z-score, replicate C = -0.77.
ELL3 (elongation factor for RNA polymerase II 3) scored mean z-score -1.04; z-score, replicate A = -1.31; z-score, replicate B = -1.2; z-score, replicate C = -0.6.
PSCA (prostate stem cell antigen) showed mean z-score 0.8; z-score, replicate A = 0.99; z-score, replicate B = 0.79; z-score, replicate C = 0.62.
OR6B3 (olfactory receptor family 6 subfamily B member 3) gave mean z-score 1.4; z-score, replicate A = 1.84; z-score, replicate B = 1.32; z-score, replicate C = 1.02.
